Experimental data: PubChem BioAssay AID624099 (ICCB-Longwood, 2012)
Aim: 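Human genes that papillomavirus E2 requires to repress the HPV18 LCR promoter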 (primary screen). System: human C33A cervical carcinoma cells (HPV-negative) stably expressing BPV1 E2 and an HPV18 LCR luciferase reporter. Reagent: siRNA pool against human genes, 40 nM. Time to read-out: 72 h. Measurement: 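Per-well luciferase luminescence, z-scored on each plate against the plate mean and SD with control wells left out, then averaged across three replicate plates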. Scale: mean z-score and z-score: higher = stronger reporter signal, weaker E2 silencing. Hit rule: 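Mean z ≥ 2 together with z ≥ 2 in two or more of the three replicates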.
The deposit covers about 21,000 reagents; this is a part drawn at random. Of all reagents, 497 (2.4%) were called active. 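Higher z means weaker E2 silencing; only reporter increases were scored, and knock-downs that hurt cell survival may mask genuine repressor factors.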

With SMO (GeneID 6608), what was measured?
mean z-score: -0.65; z-score, replicate A: -0.47; z-score, replicate B: -0.81; z-score, replicate C: -0.66; outcome: inactive

For RAB35 (GeneID 11021), what does the deposit list?
mean z-score: 0.95; z-score, replicate A: 0.98; z-score, replicate B: 0.82; z-score, replicate C: 1.05; outcome: inactive

What did the screen give for PRKD2 (GeneID 25865)?
mean z-score: -0.11; z-score, replicate A: -0.06; z-score, replicate B: -0.29; z-score, replicate C: 0.03; outcome: inactive

With LOC402485 (retired record) (GeneID 402485), what does the deposit list?
mean z-score: -0.17; z-score, replicate A: -0.09; z-score, replicate B: -0.37; z-score, replicate C: -0.06; outcome: inactive

With RPL22P11 (GeneID 402100), what does the deposit list?
mean z-score: -1.83; z-score, replicate A: -1.51; z-score, replicate B: -1.69; z-score, replicate C: -2.28; outcome: inactive

What did the screen give for DIPK2A (GeneID 205428)?
mean z-score: 0.52; z-score, replicate A: 0.31; z-score, replicate B: 0.73; outcome: inactive

How did the screen score GABRA4 (GeneID 2557)?
mean z-score: -0.19; z-score, replicate A: -0.09; z-score, replicate B: -0.25; z-score, replicate C: -0.23; outcome: inactive

What did the screen give for TDRKH (GeneID 11022)?
mean z-score: -1.52; z-score, replicate A: -1.39; z-score, replicate B: -1.61; z-score, replicate C: -1.56; outcome: inactive

2 successive records already listed, for reference:
RPL22P11 (GeneID 402100) → mean z-score: -1.83; z-score, replicate A: -1.51; z-score, replicate B: -1.69; z-score, replicate C: -2.28; outcome: inactive
DIPK2A (GeneID 205428) → mean z-score: 0.52; z-score, replicate A: 0.31; z-score, replicate B: 0.73; outcome: inactive

Additional entries follow.
What did the screen give for BDKRB1 (GeneID 623)?
mean z-score: -0.67; z-score, replicate A: -0.7; z-score, replicate B: -0.79; z-score, replicate C: -0.51; outcome: inactive

With RIC8A (GeneID 60626), how do the results read?
mean z-score: 1.79; z-score, replicate A: 1.6; z-score, replicate B: 2.02; z-score, replicate C: 1.76; outcome: inactive

With GATA5 (GeneID 140628), what was measured?
mean z-score: -1.78; z-score, replicate A: -1.8; z-score, replicate B: -1.7; z-score, replicate C: -1.85; outcome: inactive

For MILIP (GeneID 92659), what was measured?
mean z-score: 0.82; z-score, replicate A: 1.11; z-score, replicate B: 0.68; z-score, replicate C: 0.67; outcome: inactive

How did the screen score LRSAM1 (GeneID 90678)?
mean z-score: -0.78; z-score, replicate A: -0.99; z-score, replicate B: -0.79; z-score, replicate C: -0.56; outcome: inactive

How did the screen score RBAKDN (GeneID 389458)?
mean z-score: -0.44; z-score, replicate A: -0.32; z-score, replicate B: -0.49; z-score, replicate C: -0.51; outcome: inactive

Which result is listed for SPAG17 (GeneID 200162)?
mean z-score: -0.4; z-score, replicate A: -0.53; z-score, replicate B: -0.68; z-score, replicate C: 0; outcome: inactive

With LOXL3 (GeneID 84695), how do the results read?
mean z-score: 2.43; z-score, replicate A: 2.54; z-score, replicate B: 2.15; z-score, replicate C: 2.59; outcome: active

Which result is listed for HSD11B2 (GeneID 3291)?
mean z-score: 0.21; z-score, replicate A: 0.43; z-score, replicate B: 0.31; z-score, replicate C: -0.1; outcome: inactive

With RGS8 (GeneID 85397), what was measured?
mean z-score: 0.07; z-score, replicate A: 0.24; z-score, replicate B: -0.14; z-score, replicate C: 0.1; outcome: inactive

What is on record for KREMEN2 (GeneID 79412)?
mean z-score: -0.07; z-score, replicate A: 0.16; z-score, replicate B: -0.05; z-score, replicate C: -0.3; outcome: inactive

For CHKA (GeneID 1119), what does the deposit list?
mean z-score: -1.15; z-score, replicate A: -1.49; z-score, replicate B: -0.92; z-score, replicate C: -1.04; outcome: inactive

What did the screen give for OR2D3 (GeneID 120775)?
mean z-score: 0.63; z-score, replicate A: 0.82; z-score, replicate B: 0.24; z-score, replicate C: 0.82; outcome: inactive
